Anti-infective test results gathered from many reports (values: NIAID ChemDB through PubChem).

Shared fields: tests in culture; organism: Candida albicans

MIC50, MIC90 and the like: level of inhibition, or share of isolates inhibited.

compound,method,conditions,strain or isolate,endpoint,value
Clc1ccc(COc2ccc(C(c3ccc(-c4ccccc4)cc3)n3ccnc3)cc2)c(Cl)c1.O=[N+]([O-])O,,,16 strains,MIC90,≥256 µg/mL
CN(CCCC#CC(C)(C)C)c1cccc2c1CCC(=O)N2,,,Clinical isolate 9,MIC,31.25 µg/mL
CCCCCOc1ccc(-c2ccc(-c3ccc(C(=O)N[C@H]4CCCNC(=O)C5C[C@H](N)CN5C(=O)C(C(C)O)NC(=O)C(OCc5ccccc5)NC(=O)C5CC(O)CN5C(=O)C(C(C)O)NC4=O)cc3)cc2)cc1,,,ATCC 62376,MIC,1.56 µg/mL
Clc1ccc(C(c2nccc3ccccc23)n2ccnc2)cc1.O=[N+]([O-])O,,,44 strains,Mean MIC,29.6 µg/mL
Cc1c(O)cccc1C(=O)N[C@@H](CSc1ccccc1)[C@H](O)CN1C[C@H]2CCCC[C@H]2C[C@H]1C(=O)NC(C)(C)C,,,I129A,MIC,64 µg/mL
CC[C@@H]([C@H](C)O)n1ncn(-c2ccc(N3CCN(c4ccc(OC[C@@H]5CO[C@@](Cn6cncn6)(c6ccc(F)cc6F)C5)cc4)CC3)cc2)c1=O,broth dilution,pH 7,15 isolates,EC90,0.03 µg/mL
CCCCCOc1ccc(-c2cc(-c3ccc(C(=O)N[C@H]4C[C@@H](O)[C@@H](O)NC(=O)[C@@H]5[C@@H](O)[C@@H](C)CN5C(=O)[C@H]([C@H](O)CC(N)=O)NC(=O)[C@H]([C@H](O)[C@@H](O)c5ccc(O)c(OS(=O)(=O)O)c5)NC(=O)[C@@H]5C[C@@H](O)CN5C(=O)[C@H]([C@@H](C)O)NC4=O)cc3)no2)cc1,,,Fluconazole-resistant 4 isolates pooled,MFC50,0.0313 µg/mL
C[C@@H](N1CCN(Cc2cn(Cc3ccc(Cl)cc3Cl)c3ccccc23)CC1)[C@](O)(Cn1cncn1)c1ccc(F)cc1F,resazurin,,ATCC MYA-1003,MIC80,4 µg/mL
CCCCCOc1ccc(-c2ccc(-c3ccc(C(=O)N[C@H]4CCCNC(=O)C5CN(C(=O)OCc6ccccc6)CN5C(=O)C(C(C)O)NC(=O)C(CCc5ccc(O)cc5)NC(=O)C5C[C@@H](O)CN5C(=O)C(C(C)O)NC4=O)cc3)cc2)cc1,,,ATCC CCH442,MIC,100 µg/mL
C=CCc1ccc(Cn2cc(CN3CCN([C@H](C)[C@](O)(Cn4cncn4)c4ccc(F)cc4F)CC3)c3cccc(F)c32)cc1,resazurin,,ATCC MYA-1003,MIC80,>128 µg/mL
Clc1ccccc1COc1ccc(C(c2cccc3ccccc23)n2ccnc2)cc1.O=[N+]([O-])O,,,17 strains,MIC90,≥256 µg/mL
Cc1c(Sc2ccccc2)[n+](=O)c2cc(Cl)ccc2n1[O-],,,Clinical isolate 2,MIC,62.5 µg/mL
CC(C)N=C(N)c1ccc2nc(-c3ccc4c(c3)Cc3cc(-c5nc6ccc(C(N)=NC(C)C)cc6[nH]5)ccc3-4)[nH]c2c1,,,Isolate CA1247,MIC,1.56 µg/mL
CCC(C)CC(C)CCCCCCCCC(=O)N[C@H]1C[C@@H](O)[C@H](NCCN)NC(=O)[C@@H]2[C@@H](O)CCN2C(=O)[C@H]([C@H](O)CCN)NC(=O)[C@H]([C@H](O)[C@@H](O)c2ccc(O)cc2)NC(=O)[C@@H]2C[C@@H](O)CN2C(=O)[C@H]([C@@H](C)O)NC1=O,broth dilution,pH 7,15 isolates,EC90,0.125 µg/mL
CCC(C)CC(C)CCCCCCCCC(=O)N[C@H]1C[C@@H](O)[C@@H](OCCN)NC(=O)[C@@H]2[C@@H](O)CCN2C(=O)[C@H]([C@@H](O)CCN)NC(=O)[C@H]([C@H](O)[C@@H](O)c2ccc(O)cc2)NC(=O)[C@@H]2C[C@@H](O)CN2C(=O)[C@H]([C@H](C)O)NC1=O,,,ATCC 90028,MIC,≤0.007 µg/mL
C[C@@H](N1CCN(Cc2cn(Cc3ccc(F)cc3F)c3cc(N=[N+]=[N-])ccc23)CC1)[C@](O)(Cn1cncn1)c1ccc(F)cc1F,resazurin,,ATCC 64548,MIC80,0.125 µg/mL
Fc1ccc(COc2ccc(C(c3nccc4ccccc34)n3ccnc3)cc2)cc1,,,17 strains,MIC90,≥256 µg/mL
CC(=O)N1CCN(c2ccc(OC[C@H]3CO[C@](Cn4ccnc4)(c4ccc(Cl)cc4Cl)O3)cc2)CC1,broth dilution,pH 7,10 isolates,MIC,0.03 µg/mL
CC(O)Cc1ccc(Cn2cc(CN3CCN([C@H](C)[C@](O)(Cn4cncn4)c4ccc(F)cc4F)CC3)c3cccc(F)c32)cc1,resazurin,,ATCC MYA-1003,MIC80,>128 µg/mL
COc1cc(O)c2c(c1)C(=O)c1c(cc3c(c1O)-c1c(cc(C)c(C(=O)NC(CO)C(=O)O)c1O)[C@H](OC1OC(C)C(O)C(OC4OCC(O)C(O)C4O)C1O)C3O)C2=O,,,A25941 (amphotericin B-resistant),MIC,4 µg/mL
Clc1ccc(COC(Cn2ccnc2)c2ccc(Cl)cc2Cl)c(Cl)c1,broth dilution,pH 6,10 isolates,MIC,0.5 µg/mL
CCOc1cc2c(cc1F)n([O-])c(C)c(Cl)[n+]2=O,,,Clinical isolate 14,MIC,62.5 µg/mL
CCCCCOc1ccc(-c2ccc(-c3ccc(C(=O)N[C@H]4CCCNC(=O)C5[C@@H](O)CN5C(=O)C(C(C)O)NC(=O)C(CCc5ccc(O)cc5)NC(=O)C5C[C@@H](O)CN5C(=O)C(C(C)O)NC4=O)cc3)cc2)cc1,,,ATCC 62376,MIC,0.2 µg/mL
C=CCc1ccc(O)c(OC)c1,turbidity,,3034,MIC90,490 µg/mL
Cc1c(S(=O)(=O)c2ccccc2)[n+](=O)c2ccccc2n1[O-],,,Clinical isolate 16,MIC,31.25 µg/mL
CCCCCc1ccc(C(=O)N[C@H]2CCCNC(=O)C3C[C@H](N)CN3C(=O)C(C(C)O)NC(=O)C(CCc3ccc(O)cc3)NC(=O)C3C[C@@H](O)CN3C(=O)C(C(C)O)NC2=O)cc1,,,ATCC 62376,MIC,25 µg/mL
C[C@@H](N1CCN(Cc2cn(Cc3ccc(F)cc3F)c3cc(Cl)ccc23)CC1)[C@](O)(Cn1cncn1)c1ccc(F)cc1F,resazurin,,ATCC MYA-1003,MIC80,8 µg/mL
Fc1ccc(COc2ccc(C(c3ccc4ccccc4c3)n3ccnc3)cc2)cc1.O=[N+]([O-])O,,,17 strains,Mean MIC,≥256 µg/mL

Lines come from different laboratories, so protocols vary. Blank or dashed fields: not listed here. ECn is the concentration giving n% inhibition of infection, replication or growth.